## Results of single-concentration screens

Data taken from ChEMBL document CHEMBL3988442, “University of Dundee, Small-Polar-MMV Screening Library” (2021).

Values are the deposited “Percent Effect”, in %. The controls that fix the scale are not given in the record; negative values are as filed. Many other results are left out here, so strong results are more common than in the screen. A dash means the value is not listed here; it may have been measured.

Mtb cholesterol medium: 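Phenotypic screen: M. tuberculosis growth, cholesterol and DPPC medium, 4 days; the read-out is not stated. Concentration: 500 µM. The record gives no direction; compounds that gave an IC50 in retests scored well above the rest, so higher reads as more growth inhibition. Size under these conditions: about 18,000 compounds, about 900 of them at 50% or above in at least one test.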
Mtb glucose medium: 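Growth of Mycobacterium tuberculosis over 3 days (7H9 medium with glucose and tyloxapol); the read-out is not stated. Concentration: 500 µM. The record gives no direction; compounds that gave an IC50 in retests scored well above the rest, so higher reads as more growth inhibition. Of about 18,000 compounds tested this way, about 1,400 (7.9%) reached 50% or more in at least one test.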

CN(CC(=O)N1CCOCC1)Cc1cc(Br)cs1 read Mtb cholesterol medium: 53.14%; Mtb glucose medium: 57.3%.
c1ccc(NCc2c[nH]nn2)cc1 read Mtb glucose medium: 14.37%.
CC(C)(C)OC(=O)N1CCOCC(CO)C1 (stereo not given) read Mtb glucose medium: 3.455%.
Cc1cc(C(=O)Nc2cccc(C[S+](C)[O-])c2)on1 (stereo not given) read Mtb cholesterol medium: -10.22%.
NC(=O)COc1cccc(CN2CCC(F)CC2)c1 read Mtb glucose medium: 50.09%.
COc1cccc(N2CCC(CN)C2)c1 (stereo not given) read Mtb cholesterol medium: 90.94%; Mtb glucose medium: 87.08%.
CC(=O)NCc1ccc(-c2ccccc2CO)nc1 read Mtb glucose medium: -12.76%.
CC(C)NC(=O)COC(=O)C1=NN(C)C(=O)CC1 read Mtb cholesterol medium: 11.21%.
CC(CNc1ccccc1)NC(=O)c1ccncc1F (stereo not given) read Mtb glucose medium: -2.451%.
Cc1cccc(OCC(O)CNC(C)C)c1 (stereo not given) read Mtb cholesterol medium: 13.43%; Mtb glucose medium: 10.64%.
Cc1cc(C(=O)N2C[C@@H](CO)[C@H](N(C)C)C2)c(C)o1 read Mtb glucose medium: 17.62%.
CCSc1nc(N)c(C#N)cc1C#N read Mtb glucose medium: 14.93%.
Cc1cc(C(=O)N2CC(N3CCOCC3)C2)ccc1O read Mtb glucose medium: 1.696%.
CC(c1ccccc1F)N1CC(=O)N(C)C1 (stereo not given) read Mtb glucose medium: 4.149%.
Cc1cccc(CNC(=O)c2ccc(C#N)nc2)n1 read Mtb glucose medium: 18.24%.
CC(Cn1cccn1)NCc1ccncc1 (stereo not given) read Mtb glucose medium: 9.77%.
O=S1(=O)CCC(n2cccn2)C1 (stereo not given) read Mtb glucose medium: 7.097%.
COc1ccc(OC2CCNCC2)nc1 read Mtb cholesterol medium: 4.844%; Mtb glucose medium: -2.165%.
CC(C)[C@H](N)C(=O)N1CCC(Oc2cccnc2)C1 (stereo not given in full) read Mtb glucose medium: 49.78%.
CSc1nnc(C)s1 read Mtb glucose medium: 41.19%.
O=C(NCCSC1CCCC1)c1ccccn1 read Mtb cholesterol medium: 51.02%; Mtb glucose medium: 68.62%.
CC(=O)c1cnccc1C read Mtb glucose medium: -3.32%.
CC[C@@]1(O)CCN(C(=O)CCc2cc(Cl)no2)C[C@H]1O read Mtb cholesterol medium: 35.85%; Mtb glucose medium: 41.53%.
CCCC(NC(=O)c1cnc(O)cn1)c1nccn1C (stereo not given) read Mtb cholesterol medium: -20.6%.
CCN(Cc1ccncc1)C(=O)C1CCCNCC1 (stereo not given) read Mtb cholesterol medium: -1.257%.
Cc1cc(N2CCN(CCO)CC2)nc2ccccc12 read Mtb cholesterol medium: 27.3%; Mtb glucose medium: -7.567%.
COC(=O)Cn1c(=O)oc2ccccc21 read Mtb cholesterol medium: -14.29%; Mtb glucose medium: 11.73%.
COc1ccc(F)cc1C(=O)OCC(=O)NC1CC1 read Mtb cholesterol medium: 64.37%; Mtb glucose medium: 78.24%.
Cc1ccc(CN(C)Cc2nccn2C)nc1 read Mtb cholesterol medium: 0.008237%.
CC(C)CC1NCCNC1=O (stereo not given) read Mtb glucose medium: 2.471%.
CN(CCc1ccncc1)CCN1CCCC1=O read Mtb glucose medium: 10.31%.
c1cnn(CCN2CCCC(Cn3cncn3)C2)c1 (stereo not given) read Mtb glucose medium: -10.59%.
c1ccc2[nH]c(C3CNC3)nc2c1 read Mtb cholesterol medium: 16.59%; Mtb glucose medium: 31.53%.
Cc1c(Br)cccc1S(=O)(=O)NCCN read Mtb glucose medium: 64.6%.
CCn1ncnc1CN1C[C@H](O)[C@@H](N2CCCCC2)C1 read Mtb glucose medium: 0.8114%.
COC(=O)CNc1ccccc1 read Mtb glucose medium: 55.83%.
COCCOc1ccc(C#N)cn1 read Mtb cholesterol medium: 3.295%.
COc1ccnc(CN2CCCCC(N)C2)c1OC (stereo not given) read Mtb glucose medium: 13.44%.
Cn1nc(-c2cc(F)cc(F)c2)cc1N read Mtb glucose medium: 32.73%.
CC1(C)Oc2ccc(NC(=O)C3CCOC3)cc2O1 (stereo not given) read Mtb cholesterol medium: 37.02%; Mtb glucose medium: 59.73%.
c1cn2nc(N3CCCC3)ccc2n1 read Mtb glucose medium: 18.15%.
CCc1ccccc1CN read Mtb glucose medium: 8.55%.

Some entries from above, unchanged:

compound,Mtb cholesterol medium,Mtb glucose medium
CCc1ccccc1CN,-,8.55%
COCCOc1ccc(C#N)cn1,3.295%,-
CCSc1nc(N)c(C#N)cc1C#N,-,14.93%
CC[C@@]1(O)CCN(C(=O)CCc2cc(Cl)no2)C[C@H]1O,35.85%,41.53%